Test results published in patent publication US9682130B2 (priority 2015, dated 2017).
Where “and” joins values, the source holds several entries; their conditions need not be identical. Identical values can stand only once.

Key:
[1] = tested on: Human Adenovirus 5 (AD5 strain NYS #98-1836); format: cell-based; conditions: CC50 divided by EC50
Method: (§1) To assess in vitro cytotoxicity, both a cytopathic effects of a virus (CPE) regression assay and a neutral red lysosomal uptake cell viability assay was performed essentially as described in, e.g., Repetto, et al., Neutral Red Uptake Assay for the Estimation of Cell Viability/Cytotoxicity, Nat. Protoc. 3: 1125-1131 (2008), the content of which is hereby incorporated by reference in its entirety. Ninety-six-well plates were seeded with MA-104 cells at 1×10^5 cells/mL and incubated overnight at 37° C. with 5% CO2. […] Each dilution was added to 5 wells of a 96-well plate with 80% to 100% confluent cells, and three wells of each dilution were then infected with one of the two test viruses. Two wells remained uninfected as controls for toxicity. Six wells per plate were set aside as uninfected, untreated cell controls, and six wells per plate were infected with no treatment as virus controls. […] Assay plates were incubated at 37° C. with 5% CO2. […] After CPE reduction assay was completed, a neutral red lysosomal uptake assay was conducted by filling each well with 0.011% (m/v) neutral red, a vital stain. The plates then were incubated for about 2 hours at 37° C. in the dark. […] The plates were then read on a spectrophotometer at 540 nm to quantify the neutral red taken up by the healthy cells. […]

[2] = tested on: Human Adenovirus 8 (Ad8 strain 13306); assay: CPE reduction assay, Adenovirus 8; format: cell-based; conditions: CC50 divided by EC50
Method: as §1

Structure (SMILES): Nc1ccn([C@H]2CC[C@@H](CO)O2)c(=O)n1 [ddC, 2′, 3′-Dideoxycytidine]
- CPE Reduction Assay SI [1]: > 2400 and <2400
- CPE Reduction Assay SI [2]: > 2400 and <2400
